# Reference: PubChem BioAssay AID624099 (ICCB-Longwood, 2012)
# Screen: 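Host factors E2 relies on to silence an HPV18 LCR reporter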 (primary screen)
# System: human C33A cervical carcinoma cells (HPV-negative) stably expressing BPV1 E2 and an HPV18 LCR luciferase reporter
# Knock-down reagent: siRNA pool against human genes, 40 nM
# Duration: 72 h
# Read-out: 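Per-well luciferase luminescence, z-scored on each plate against the plate mean and SD with control wells left out, then averaged across three replicate plates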
# Scale: mean z-score and z-score: higher = stronger reporter signal, weaker E2 silencing
# Active means: 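Mean z ≥ 2 together with z ≥ 2 in two or more of the three replicates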
# The deposit covers about 21,000 reagents; below is a part drawn at random. Over the whole deposit, 497 (2.4%) got an active call. 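Higher z means weaker E2 silencing; only reporter increases were scored, and knock-downs that hurt cell survival may mask genuine repressor factors.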 Unmarked entries are inactive.
gene,mean z-score,"z-score, replicate A","z-score, replicate B","z-score, replicate C"
RSPRY1 (ring finger and SPRY domain containing 1),0.26,0.25,0.21,0.33
SNX9 (sorting nexin 9),0.65,0.61,0.88,0.45
CPN1 (carboxypeptidase N subunit 1),-0.12,-0.11,-0.25,0.01
PROM1 (prominin 1),0.04,0.15,-0.03,0
EDC3 (enhancer of mRNA decapping 3),-0.56,-0.28,-0.84,-0.54
"KIT (KIT proto-oncogene, receptor tyrosine kinase)",-0.46,-0.36,-0.52,-0.49
SLC37A2,0.26,0.24,0.38,0.14
TOX4P1 (TOX high mobility group box family member 4 pseudogene 1),-0.11,-0.13,-0.21,0.01
ZNF132 (zinc finger protein 132),0.53,0.36,0.5,0.72
TRMT44 (tRNA methyltransferase 44 homolog),1.38,1.65,1.2,1.27
SOX14 (SRY-box transcription factor 14),0.32,0.3,0.36,0.29
F2R (coagulation factor II thrombin receptor),0.49,1.02,0.23,0.23
NFIB (nuclear factor I B),-1.61,-1.6,-1.48,-1.74
CYB561D2 (cytochrome b561 family member D2),-0.07,0.45,-0.25,-0.4
FNDC7 (fibronectin type III domain containing 7),-0.67,-0.33,-0.85,-0.83
"SPTBN2 (spectrin beta, non-erythrocytic 2)",0.21,0.42,0.11,0.09
ARL4C (ARF like GTPase 4C),-1.86,-1.87,-1.77,-1.94
OR6B2 (olfactory receptor family 6 subfamily B member 2),-0.64,-0.77,-0.62,-0.51
SEL1L2 (SEL1L2 adaptor subunit of SYVN1 ubiquitin ligase),0.58,0.29,0.94,0.51
ABCC9 (ATP binding cassette subfamily C member 9),-0.39,-0.32,-0.54,-0.32
SLC35G5,0.54,0.64,0.61,0.36
"BPESC1 (blepharophimosis, epicanthus inversus and ptosis candidate 1)",-1.06,-1.26,-1.23,-0.7
ILF3-DT (ILF3 divergent transcript),-0.48,-0.04,-1.06,-0.33
"PCDHGB3 (protocadherin gamma subfamily B, 3)",0.39,0.46,0.13,0.59

The list goes on (5 carried over from the part before).
gene,mean z-score,"z-score, replicate A","z-score, replicate B","z-score, replicate C"
ABCC9 (ATP binding cassette subfamily C member 9),-0.39,-0.32,-0.54,-0.32
SLC35G5,0.54,0.64,0.61,0.36
"BPESC1 (blepharophimosis, epicanthus inversus and ptosis candidate 1)",-1.06,-1.26,-1.23,-0.7
ILF3-DT (ILF3 divergent transcript),-0.48,-0.04,-1.06,-0.33
"PCDHGB3 (protocadherin gamma subfamily B, 3)",0.39,0.46,0.13,0.59
TP53AIP1 (tumor protein p53 regulated apoptosis inducing protein 1),-0.04,-0.25,0.12,0
DLEU1 (deleted in lymphocytic leukemia 1),-0.34,-0.47,-0.17,-0.39
SYNGR2 (synaptogyrin 2),1,0.9,1.09,1.01
ZNF676 (zinc finger protein 676),0.98,0.75,0.89,1.32
ELMO3 (engulfment and cell motility 3),-0.21,-0.05,0.08,-0.67
MRPL27 (mitochondrial ribosomal protein L27),-0.64,-0.45,-0.99,-0.5
HLA-DPB2,4.41 (active),4.11,4.52,4.61
SCML2 (Scm polycomb group protein like 2),-0.3,-1.49,0.6,0.01
CFD (complement factor D),-0.28,-0.03,-0.56,-0.25
ITPRIPL2 (ITPRIP like 2),-0.11,0.07,0.2,-0.6
AURKA (aurora kinase A),0.21,-0.08,0.21,0.49
CLUH (CLUH binding protein of NUMT mRNA),-1.38,-1.48,-1.36,-1.3
FAM90A15 (family with sequence similarity 90 member A15),0.21,0.38,-0.07,0.31
MGAT5,0.08,0.09,0,0.15
ODF1 (outer dense fiber of sperm tails 1),-0.1,0.16,-0.17,-0.28
